PubChem BioAssay AID624099, ICCB-Longwood – 2012

- Test: 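Human genes that papillomavirus E2 requires to repress the HPV18 LCR promoter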 (primary screen)
- Cells: human C33A cervical carcinoma cells (HPV-negative) stably expressing BPV1 E2 and an HPV18 LCR luciferase reporter
- Reagents: siRNA pool against human genes, 40 nM
- Time to read-out: 72 h
- Measured: 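HPV18 LCR reporter light per well, converted to plate-wise z-scores that exclude control wells, and averaged over triplicate plates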
- Direction: mean z-score and z-score: higher = stronger reporter signal, weaker E2 silencing
- Rule for the call: 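Hit if mean z-score reaches 2 and two or more of three replicate z-scores also reach 2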
Here is an unselected part of about 21,000 deposited reagents. Of all reagents, 497 (2.4%) got an active call. 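Higher z means weaker E2 silencing; only reporter increases were scored, and knock-downs that hurt cell survival may mask genuine repressor factors.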 Entries without a mark were called inactive.

gene	mean z-score	z-score, replicate A	z-score, replicate B	z-score, replicate C
MCM10 (minichromosome maintenance 10 replication initiation factor)	0.75	0.65	0.84	0.76
ELOVL1 (ELOVL fatty acid elongase 1)	-0.25	-0.46	-0.6	0.3
NUDT21 (nudix hydrolase 21)	1.22	1.26	1.18	1.21
APBB1IP	0.07	0.01	0.02	0.18
GM2A (ganglioside GM2 activator)	1.74	1.75	1.8	1.68
DBX1 (developing brain homeobox 1)	1.28	1.05	1.71	1.09
CXorf38 (chromosome X open reading frame 38)	-0.49	-0.74	-0.14	-0.58
PARVB (parvin beta)	-1.02	-0.71	-0.91	-1.44

Next part, starting with the last 3 of the part before.
gene	mean z-score	z-score, replicate A	z-score, replicate B	z-score, replicate C
DBX1 (developing brain homeobox 1)	1.28	1.05	1.71	1.09
CXorf38 (chromosome X open reading frame 38)	-0.49	-0.74	-0.14	-0.58
PARVB (parvin beta)	-1.02	-0.71	-0.91	-1.44
RLN1 (relaxin 1)	0.17	0.06	0.19	0.25
PRTG (protogenin)	-0.76	-0.43	-1.08	-0.77
LCN1P1 (lipocalin 1 pseudogene 1)	0.44	0.87	0.71	-0.26
HGFAC (HGF activator)	-0.31	-0.41	-0.23	-0.28
MDGA1 (MAM domain containing glycosylphosphatidylinositol anchor 1)	1.42	1.29	1.59	1.39
LOC402697 (retired record)	0.12	-0.32	0.08	0.59
PPP1R13B (protein phosphatase 1 regulatory subunit 13B)	-0.12	-0.16	-0.02	-0.17
ZNF843 (zinc finger protein 843)	0.33	0.13	0.55	0.33
BCO2 (beta-carotene oxygenase 2)	1.08	0.57	1.33	1.33
USH2A (usherin)	-0.09	-0.17	-0.09	-0.02
GJA5 (gap junction protein alpha 5)	1.45	1.71	1.24	1.41
LOC402275 (retired record)	0.34	0.44	0.42	0.17
EEF1AKMT1 (EEF1A lysine methyltransferase 1)	1.05	1.27	0.81	1.06
FAM87A (family with sequence similarity 87 member A)	-0.11	-0.56	0.19	0.05
LGALS1 (galectin 1)	-0.76	-1.01	-0.69	-0.59
